A mixed list of measured activities; the numbers were collected in NIAID ChemDB.

Common to all: growth or infection tests; organism: Respiratory syncytial virus; read by: cytopathic effect; measure: EC50

ECn is the concentration giving n% inhibition of infection, replication or growth. Neighbouring rows are from separate reports. An empty or dashed field is not shown.

SMILES,strain,cells,result
OC[C@H]1O[C@@H](c2cc(Cl)c(F)cc2F)C[C@@H]1O,,HeLa,>400 µg/mL
Cc1cc(C)c2nc(NC3CCN(CCCC(N)=O)CC3)n(Cc3nc(C)ccc3O)c2c1,,HeLa,0.04 µM
CC=NC(=N)c1nc(-c2ccc(C)cc2)n(COCCO)n1,LONG,HeLa,>100 µg/mL
O=c1ccn([C@H]2C[C@@H](O)[C@H](CO)O2)c(=O)[nH]1,A2,VERO B,>100 µM
C1=CCC2(CC1)COC(c1ccco1)OC2,LONG,HeLa,>500 µg/mL
CCOc1ncn(-c2ccc(NC(=S)Nc3cccc(O)c3)cc2)n1,LONG,HeLa,8 µg/mL
COc1cc(Cc2cnc(-n3c(-c4ccccc4)nc4ccc(Br)cc4c3=O)nc2N)cc(OC)c1OC,,HeLa,>16 µg/mL
CC=NC(=N)c1nc(-c2ccc(OC)cc2)n(COCCO)n1,LONG,HeLa,100 µg/mL
CC1(C)[C@@H](CO)CC[C@@]1(C)Cn1nnc2c(=O)[nH]cnc21,,HeLa,>400 µg/mL
Cc1ccc(O)c(Cn2c(NCCOCCO)nc3ccccc32)n1,,HeLa,79.43 µM
CC1(CO)CCC(Cn2cnc3c(N)nc(N)nc32)C1(C)C,,HeLa,40 µg/mL
Nc1ccn([C@@H]2C[C@H](CO)[C@@H](O)[C@H]2O)c(=O)n1,LONG,HeLa,>70 µg/mL
CC1(C)[C@@H](CCO)C[C@H]1n1cnc2c(=O)[nH]cnc21,,HeLa,>400 µg/mL
c1ccc2c(c1)CSSC2,A2 (A),HeLa,11.1 µM
CC(=O)Nn1c(-c2cn(-c3ccccc3)nc2-c2ccccc2)n[nH]c1=S,,HeLa,>80 µg/mL
C=C(N=CC)c1nc(-c2ccc(C)cc2)n([C@@H]2O[C@H](CO)[C@@H](O)[C@H]2O)n1,LONG,HeLa,≥100 µg/mL
NC(=O)CCN(CCC(N)=O)S(=O)(=O)c1cccc(Nc2nc(Nc3cccc(S(=O)(=O)N(CCC(N)=O)CCC(N)=O)c3)nc(Nc3ccc(-c4ccc(Nc5nc(Nc6cccc(S(=O)(=O)N(CCC(N)=O)CCC(N)=O)c6)nc(Nc6cccc(S(=O)(=O)N(CCC(N)=O)CCC(N)=O)c6)n5)cc4S(=O)(=O)O)c(S(=O)(=O)O)c3)n2)c1,47063/TYPE B,HEP-2,0.25 µg/mL
CC1(CO)CCC(Cn2nnc3c(N)ncnc32)C1(C)C,,HeLa,>40 µg/mL
N#CC1=CSc2nnc(-c3cn(-c4ccccc4)nc3-c3ccccc3)n2N=C1N,,HeLa,>16 µg/mL
Cc1cc(C)c2nc(NCC3COC(C)(C)O3)n(Cc3nc(C)ccc3O)c2c1,,HeLa,100 µM
O=C(/C=C/c1ccc(O)c(O)c1)O[C@@H]1CC(O)(C(=O)O)C[C@@H](OC(=O)/C=C/c2ccc(O)c(O)c2)C1O,57754 (TYPE A6),HEP-2,0.16 µg/mL
CC1(C)[C@@H](CO)CC[C@@]1(C)Cn1ccc(=O)[nH]c1=O,,HeLa,>400 µg/mL
NC1=Nn2c(nnc2-c2cn(-c3ccccc3)nc2-c2ccccc2)SC1,,HeLa,>16 µg/mL
COc1ncnc2c1ncn2[C@@H]1O[C@H](CO)[C@@H](O)[C@@H]1O,,,>100 µM
CCOc1cc(O)c(C(=O)/C=C/c2ccc(OC)cc2)c(OC)c1,,HeLa,>3 µg/mL
CCOC(=O)CCCNc1nc2ccccc2n1Cc1nc(C)ccc1O,,HeLa,100 µM
O=C(/C=C/c1ccc(O)c(O)c1)O[C@@H]1CC(O)(C(=O)O)C[C@@H](OC(=O)/C=C/c2ccc(O)c(O)c2)C1O,,HEP-2,0.5 µg/mL
CC=NC(=N)c1nc(-c2ccccc2)n(Cc2ccccc2)n1,LONG,HeLa,>20 µg/mL
CCOc1ncn(-c2ccc(NC(=S)Nc3cnccn3)cc2)n1,LONG,HeLa,8 µg/mL
CCC[C@]1(CC(=O)O)OCCc2c1[nH]c1c(C)ccc(C#N)c21,,VERO,>80 µM
CC1(C)[C@@H](CCO)C[C@H]1n1cnc2c(N)ncnc21,,HeLa,>400 µg/mL
CC(C)CS[C@@H]1C[C@H](n2cnc3c(N)ncnc32)[C@@H](O)[C@H]1O,,HeLa,>80 µg/mL
CN(C)C(=O)COC(=O)Cc1ccc(OC(=O)c2ccc(N=C(N)N)cc2)cc1.COS(=O)(=O)O,LONG,HeLa,>500 µg/mL
Cc1cn([C@@H]2OC[C@H](CO)[C@H]2N=[N+]=[N-])c(=O)[nH]c1=O,,HeLa,>80 µg/mL
CC1(CO)CCC(Cn2nnc3c(Cl)nc(N)nc32)C1(C)C,,HeLa,>400 µg/mL
Cc1ccc(O)c(Cn2c(NC3CCN(CC(=O)C(C)C)CC3)nc3c(C)cccc32)n1,,HeLa,0.794 µM
Cc1nc2ccc(Br)cc2c(=O)n1-c1nnc(-c2cccc(Cl)c2Cl)c(N)n1,,HeLa,>16 µg/mL
Nc1nc2c(ncn2[C@H]2OC[C@@H](CO)C2O)c(=O)[nH]1,,HeLa,>80 µg/mL
CC1(CO)CCC(Cn2cnc3c(=O)[nH]c(N)nc32)C1(C)C,,HeLa,>400 µg/mL
CC1(C)[C@@H](CCO)C[C@H]1n1nnc2c(N)nc(N)nc21,,HeLa,>400 µg/mL
S=c1[nH]nc(-c2cn(-c3ccccc3)nc2-c2ccccc2)o1,,HeLa,>16 µg/mL
Cc1ccc(O)c(Cn2c(NC3CCN(CCN4CC=CC4)CC3)nc3c(C)cccc32)n1,,HeLa,0.04 µM
CC(=O)O[C@H]1[C@@H](Oc2c(C)c(O)c3c(=O)cc(C)oc3c2C)O[C@H](CO)[C@@H](O)[C@@H]1O,,HEP-2,1.3 µg/mL
C=C(N=CC)c1nc(-c2ccc(C)cc2)n(C2O[C@H](CO)[C@@H](O)[C@H](O)[C@H]2O)n1,LONG,HeLa,100 µg/mL
CCc1nc(-n2c(-c3ccccc3)nc3ccc(Br)cc3c2=O)nc(N)c1-c1ccc(Cl)cc1,,HeLa,>16 µg/mL
Cc1cn([C@@H]2O[C@@H](CO)[C@H](O)[C@H]2O)c(=O)[nH]c1=O,A2,VERO B,>1000 µM
CC(C)Oc1ccccc1CNC(=O)c1ccc2cnccc2n1,A2,MA-104,19 µM
CCCOc1ncn(-c2ccc(NC(=S)Nc3ncccn3)cc2)n1,LONG,HeLa,20 µg/mL
CC1(C)[C@@H](CO)CC[C@@]1(C)Cn1nnc2c(Cl)ncnc21,,HeLa,>400 µg/mL
[N-]=[N+]=NC(CBr)c1cc([C@H]2C[C@H](O)[C@@H](CO)O2)c(F)cc1F,,HeLa,≥400 µg/mL
O=c1[nH]n2c(-c3cn(-c4ccccc4)nc3-c3ccccc3)nnc2s1,,HeLa,>16 µg/mL
Cc1ccc(O)c(Cn2c(NC3CCN(CCCS(N)(=O)=O)CC3)nc3c(C)cccc32)n1,,HeLa,0.013 µM
CC1(CO)CCC(Cn2ccc(=O)[nH]c2=O)C1(C)C,,HeLa,>200 µg/mL
Cc1cc(C)c2nc(NCCN3CCCCC3)n(Cc3nc(C)ccc3O)c2c1,,HeLa,0.063 µM
CCOC(=O)Sc1nnc(-c2cn(-c3ccccc3)nc2-c2ccccc2)n1N,,HeLa,>80 µg/mL
CC=NC(=N)c1nc(-c2ccc(C)cc2)n(C/C=C/c2ccccc2)n1,LONG,HeLa,>20 µg/mL
CCCCCCCCCCCCCCCCO[C@H]1N([C@H]2C[C@H](N=[N+]=[N-])[C@@H](CO)O2)C(=O)NC(=O)[C@]1(C)Br,LONG,HeLa,>500 µg/mL
Cc1ccc(O)c(Cn2c(NC3CCN(CC(O)CCn4cnnc4)CC3)nc3c(C)cccc32)n1,,HeLa,0.398 µM
Cc1cn([C@@H]2OC[C@H](CO)[C@H]2O)c(=O)[nH]c1=O,,HeLa,>80 µg/mL

A second listing of 8 rows from above:

SMILES,strain,cells,result
COc1ncnc2c1ncn2[C@@H]1O[C@H](CO)[C@@H](O)[C@@H]1O,,,>100 µM
CC1(CO)CCC(Cn2ccc(=O)[nH]c2=O)C1(C)C,,HeLa,>200 µg/mL
NC1=Nn2c(nnc2-c2cn(-c3ccccc3)nc2-c2ccccc2)SC1,,HeLa,>16 µg/mL
CC1(C)[C@@H](CCO)C[C@H]1n1cnc2c(N)ncnc21,,HeLa,>400 µg/mL
Cc1cn([C@@H]2OC[C@H](CO)[C@H]2N=[N+]=[N-])c(=O)[nH]c1=O,,HeLa,>80 µg/mL
Cc1cn([C@@H]2OC[C@H](CO)[C@H]2O)c(=O)[nH]c1=O,,HeLa,>80 µg/mL
OC[C@H]1O[C@@H](c2cc(Cl)c(F)cc2F)C[C@@H]1O,,HeLa,>400 µg/mL
CC1(C)[C@@H](CO)CC[C@@]1(C)Cn1nnc2c(=O)[nH]cnc21,,HeLa,>400 µg/mL